Experimental data published in patent US7579018B2, “Microbiological control in aqueous systems” (Albemarle Corporation, priority 2000, dated 2009).

Columns and labels:
[1] = Cooling tower field trial, Example 2: feed time and biocide consumption; conditions: for Consumption rate / Feed Time: slug dose 3 times/week to 0.5 ppm free Cl2; for Consumption rate: 14,000 gallon cooling tower; for Feed Time: cooling tower pH about 9.1; for total weight of biocide consumed over 30-day test period: slug dose three times a week to about 0.5 mg/L “free chlorine”
[2] = Cooling tower field trial, Example 3: halogen residuals; conditions: cooling tower water; average of several analyses
[3] = HVAC/process cooling system field test, Example 4: feed time, residual, consumption, ORP; conditions: 16,000 gallon HVAC/process cooling system; for Halogen residual as free Cl2: pH 8.3 to 8.8
[4] = Cooling tower field trial, Example 2: copper corrosion; conditions: slug dose 3 times/week, 0.5 ppm free Cl2

Compound | Consumption rate [1] [lbs/month] | Feed Time [1] [h] | total weight of biocide consumed over 30-day test period [1] [lbs] | free halogen residual (as Cl2) [2] [mg/L] | total halogen residual (as Cl2) [2] [mg/L] | Typical ORP [3] | Halogen residual as free Cl2 [3] [ppm] | Copper corrosion [4] [mpy]
CC1(C)C(=O)N(Br)C(=O)N1Br [DBDMH, 1,3-dibromo-5,5-dimethylhydantoin] | 7 | <0.5 | 7 | 0.79 | 0.82 | 500-600 mV | >1.0 | 0.13
CC1(C)C(=O)N(Cl)C(=O)N1Br [BCDMH, N,N′-bromochloro-5,5-dimethylhydantoin, reference compound] | 25 | 1 to 5 | 25 | – | – | 400-500 mV | <0.3 | 0.34
